Key:
PGT128 = assay: SPR binding to captured mAb PGT128; settings: mAb captured on anti-Fc IgG surface, glycopeptide injected
Description: (§1) Binding of V3 Bnab to V3-Man9 glycopeptide. […] Both PGT128 and PGT125 are dependent on Man9 glycans on position N332 and N301 (Pejchal et al., 2011), with N332 being the primary glycan. Mabs were captured on anti-Fc IgG immobilized sensor surfaces and the V3-Man9 glycopeptide injected to monitor binding responses on a BIAcore 300 instrument and as previously described (Alam et al., 2013).
(§2) FIG. 13A-D show binding of PGT mAbs to synthetic Man9GlcNAc2 glycan. Binding of V3 Bnab to Man9 glycan. […] Thus, the binding of Man9GlcnAc2 glycan was detected only for V3-glycan dependent PGT BNAbs.

PGT125 = assay: SPR binding to captured mAb PGT125; settings: mAb captured on anti-Fc IgG surface, glycopeptide injected
Description: as §1, §2

[1] = system: V3 loop non-neutralizing mAb 19b; assay: SPR binding to captured V3 loop non-neutralizing mAb 19b; settings: FIG. 12 and FIG. 13D
Description: as §1, §2

anti-RSV mAb Synagis = assay: SPR binding to negative control mAb Synagis; settings: FIG. 12
Description: as §1

[2] = FIG. 12, listed as V3-Man9GlcNAc2 glycopeptide

For “V3-Man9 glycopeptide: peptide of SEQ ID NO: 8 glycosylated at Asn301 and Asn332 with Man9GlcNAc2, cyclic via endogenous cysteines (clade B JRFL mini-V3) (EINCTRPNNNTRPGEIIGDIRQAHCNISRA; Man9GlcNAc2 at N301, N332; disulfide cyclised)”, the “binding to PGT128” value (PGT128; FIG. 12) was “preferential binding”, the “binding to PGT128” value (PGT128; [2]) was “specific binding” and the “binding to PGT125” value (PGT125; FIG. 12) was “preferential binding”. For the same substance, the “binding to PGT125” value (PGT125; [2]) was “specific binding”, the “binding to non-neutralizing V3 mAb 19b” value [1] was “No binding” and the “binding to negative control mAb Synagis” value (anti-RSV mAb Synagis) was “No binding”.
